{
  "sequences": {"note": "Amino acid sequences for entries named in this document (tags omitted).", "UniProt Q8IL11, whole entry": "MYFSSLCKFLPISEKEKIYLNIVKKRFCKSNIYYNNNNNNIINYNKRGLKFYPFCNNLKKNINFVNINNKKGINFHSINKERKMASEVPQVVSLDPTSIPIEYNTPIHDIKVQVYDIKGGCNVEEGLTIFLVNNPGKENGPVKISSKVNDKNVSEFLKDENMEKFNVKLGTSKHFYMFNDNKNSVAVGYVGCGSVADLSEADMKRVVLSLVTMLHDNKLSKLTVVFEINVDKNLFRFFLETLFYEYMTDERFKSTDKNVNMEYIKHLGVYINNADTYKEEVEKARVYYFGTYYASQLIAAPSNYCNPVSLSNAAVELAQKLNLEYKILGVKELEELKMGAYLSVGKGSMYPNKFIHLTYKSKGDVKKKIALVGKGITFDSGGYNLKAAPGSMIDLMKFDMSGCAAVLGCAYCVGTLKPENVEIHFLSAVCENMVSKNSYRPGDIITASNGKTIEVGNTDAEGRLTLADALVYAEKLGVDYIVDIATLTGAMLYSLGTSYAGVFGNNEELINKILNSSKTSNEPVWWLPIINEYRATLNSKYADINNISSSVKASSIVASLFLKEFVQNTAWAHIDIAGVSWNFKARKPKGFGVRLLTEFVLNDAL"},
  "source": "PubChem BioAssay AID1619",
  "about": "(SRMLSC, 2009)",
  "note": "The list shows a part of the results, in another mix than the full data. Results with a measured potency or affinity are listed apart. Active and inactive are the calls of the source.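 The calls were made as follows: active = compound inhibiting the enzyme by more than half at any dose during confirmatory dose-response retesting; inconclusive = strong single-dose inhibitors picked by rank but not retested; inactive = the rest.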",
  "data": [
    {"biological_target": "Leucine aminopeptidase (Plasmodium falciparum (isolate 3D7)) (UniProt Q8IL11)", "assay": "P. falciparum M17LAP inhibitors, primary screen, biochemical, fluorogenic H-Leu-NHMec substrate, 1536-well (AID 1619);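 also: plate controls were full reaction with DMSO carrier for no effect and no enzyme background for full effect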", "conditions": "recombinant M17LAP, H-Leu-NHMec fluorogenic kinetic assay; at 30 µM; active compounds read high", "values": [
      {"smiles": "COc1ccc(C(=O)NCC2(N3CCCCC3)CCCCC2)c(OC)c1OC", "inhibition": "inactive: 1.24%"},
      {"smiles": "CCOC(=O)N1CCC(Nc2ccc(OC)cc2)CC1", "inhibition": "inactive: -3.28%"},
      {"smiles": "N#CC1(Nc2ccccc2)CCN(Cc2ccccc2)CC1", "inhibition": "inactive: -3.46%"},
      {"smiles": "O=C(OC1CN2CCC1CC2)C1c2ccccc2Oc2ccccc21", "note": "(centres undefined)", "inhibition": "inactive: 6.19%"},
      {"smiles": "O=C(NCC1(N2CCOCC2)CCCCC1)c1cc2ccccc2o1", "inhibition": "inactive: 4.56%"},
      {"smiles": "COc1ccc(NC2CCN(CCc3ccccc3)CC2)c(OC)c1", "inhibition": "inactive: 7.9%"},
      {"smiles": "CCOc1ccc(C)cc1CN(CCCl)CCCl", "inhibition": "inactive: -2.36%"},
      {"smiles": "Cc1ccc(OCC(C)C)c(CN(CCCl)CCCl)c1", "inhibition": "inactive: -6.58%"},
      {"smiles": "O=C(NCC1(N2CCCCC2)CCCCC1)c1cccc([N+](=O)[O-])c1", "inhibition": "inactive: -2.25%"},
      {"smiles": "N#CC1(Nc2ccccc2)CCN(CCc2ccccc2)CC1", "inhibition": "inactive: 11.7%"},
      {"smiles": "COc1ccc(NC2CCN(C(=O)OC(C)(C)C)CC2)cc1", "inhibition": "inactive: 7.81%"},
      {"smiles": "CN1CCN(CCOC(=O)C(O)(c2ccccc2)c2ccccc2)CC1", "inhibition": "inactive: 8.02%"},
      {"smiles": "O=C(NCC1(N2CCOCC2)CCCCC1)c1cc(=O)[nH]c2ccccc12", "inhibition": "inactive: 0.43%"},
      {"smiles": "COc1ccc(CN(CCCl)CCCl)cc1Cl", "inhibition": "inactive: 17.7%"},
      {"smiles": "CN(C)c1cccc(C(=O)NCC2(N3CCCCC3)CCCCC2)c1", "inhibition": "inactive: 3.55%"},
      {"smiles": "CC(C)c1ccc(NC2CCN(C(=O)OC(C)(C)C)CC2)cc1", "inhibition": "inactive: 3.94%"},
      {"smiles": "COc1ccc(C(=O)NCC2(N3CCOCC3)CCCCC2)cc1OC", "inhibition": "inactive: 9.48%"},
      {"smiles": "O=C(OC1CN2CCC1CC2)C1c2ccccc2C=Cc2ccccc21", "note": "(centres undefined)", "inhibition": "inactive: 2.17%"},
      {"smiles": "N/C(=N\\O)c1c(N)no[n+]1[O-]", "inhibition": "inactive: 2.93%"},
      {"smiles": "N#Cc1ccc(C(=O)NCC2(N3CCCCC3)CCCCC2)cc1", "inhibition": "inactive: -7.67%"},
      {"smiles": "c1ccc(CN2CCC(Nc3ccccc3)CC2)cc1", "inhibition": "inactive: -8.49%"},
      {"smiles": "Fc1ccccc1NC1CCN(Cc2ccccc2)CC1", "inhibition": "inactive: -0.07%"},
      {"smiles": "CN(C)c1ccc(C(=O)NCC2(N3CCCCC3)CCCCC2)cc1", "inhibition": "inactive: 19.4%"},
      {"smiles": "CCN1CCC(Nc2cccc(F)c2)CC1", "inhibition": "inactive: -12.3%"},
      {"smiles": "CC(C)(C)OC(=O)N1CCC(Nc2ccccc2)CC1", "inhibition": "inactive: 5.97%"},
      {"smiles": "CCOc1ncccc1C(=O)NCC1(N2CCOCC2)CCCCC1", "inhibition": "inactive: -11.4%"},
      {"smiles": "CCCOc1ccc(C)cc1CN(CCCl)CCCl", "inhibition": "inactive: -2.9%"},
      {"smiles": "CCC(CO)(C(=O)OC1CN2CCC1CC2)c1ccccc1", "note": "(centres undefined)", "inhibition": "inactive: 3.51%"},
      {"smiles": "COc1cc(OC)cc(C(=O)NCC2(N3CCOCC3)CCCCC2)c1", "inhibition": "inactive: -1.48%"}
    ]}
  ]
}
